Assay results: paper PMC7157558, “The B Subunit of PirAB^vp Toxin Secreted from Vibrio parahaemolyticus Causing AHPND Is an Amino Sugar Specific Lectin” (2020)

Columns and labels:
rPirB^vp = rPirB^vp (Vibrio parahaemolyticus, UniProt A0A085YLC1); experiment: inhibition of rat erythrocyte hemagglutination; details: PBS pH 7.4, room temperature, 2% Wistar rat erythrocytes
[1] = molecular target: T1, PirAB^vp toxin complex (wild-type) (Vibrio parahaemolyticus, UniProt A0A085YLC1); experiment: inhibition of rat erythrocyte hemagglutination; details: PBS pH 7.4
[2] = molecular target: T1, PirAB^vp toxin complex (wild-type); experiment: affinity chromatography on alpha-galactose-Sepharose, elution with […] galactose; details: phosphate buffer with 150 mM NaCl, pH 7.4; immobilised ligand

Compound	Concentration (mM) ^a (rPirB^vp) [mM]	inhibition of rat erythrocyte hemagglutination [1]	affinity chromatography on alpha-galactose-Sepharose, elution with 200 mM galact [2]
OC[C@H]1O[C@@H](O[C@H]2[C@H](O)[C@@H](O)C(O)O[C@@H]2CO)[C@H](O)[C@@H](O)[C@H]1O (stereo partly drawn)	100	–	–
N[C@H]1C(O)O[C@H](CO)[C@H](O)[C@@H]1O (stereo partly drawn)	25	only GalNH2 and GlcNH2 were able to inhibit hemagglutination of the PirAB^vp complex	–
OC[C@H]1OC(O)[C@H](O)[C@@H](O)[C@H]1O (stereo partly drawn)	–	–	identified and purified in a single step by affinity chromatography
N=C(N)NCCC[C@H](N)C(=O)O	25	–	–
N[C@H]1C(O)O[C@H](CO)[C@@H](O)[C@@H]1O (stereo partly drawn)	25	only GalNH2 and GlcNH2 were able to inhibit hemagglutination of the PirAB^vp complex	–
N[C@@H](CSSC[C@H](N)C(=O)O)C(=O)O	25	–	–
OC[C@H]1O[C@H](O[C@H]2[C@H](O)[C@@H](O)C(O)O[C@@H]2CO)[C@H](O)[C@@H](O)[C@@H]1O (stereo partly drawn)	100	–	–
